# According to paper PMC5036187 (Scientific Reports, 2016):
# Experiments:
# [1] = target: Glypican-3 (GPC3) on liver cancer cell lines (HepG2; Hep3B) (Homo sapiens (endogenous, HepG2), UniProt P51654); experiment: cell-based or functional assay
# [2] = target: Glypican-3 (GPC3) on GPC3+ cells (cell line not stated for these values) (Homo sapiens, UniProt P51654); experiment: flow cytometry on cells
Binder,"cytotoxicity against HepG2 cells, fold loss after humanization [1] [fold]",EC50 [2] [nM],"cytotoxicity against Hep3B cells, fold loss after humanization (against YP9.1IT) [1] [fold]","cytotoxicity against HepG2 cells, fold loss after humanization (against YP9.1IT) [1] [fold]"
"humanized YP9.1 version c immunotoxin (hYP9.1c scFv fused to PE38) (scFv, V domains shown) VH: EVQLVESGGGLVQPGGSLRLSCAASGFNFNTNAMNWVRQAPGKGLEWVGRVRNKTNNYATYYADSVKDRFTISRDDSKRMVYLQMNSLKTEDTAVYYCVAGNSFAYWGQGTLVTVS VL: DIVMTQSPDSLAVSLGERATINCKSSQSLLYSSNQKNYLAWYQQKPGQPPKLLIYWASTRESGVPDRFSGSGSGTDFTLTISSLQAEDVAVYYCQQYYNYPLTFGQGTKLEIK",2.9,–,–,–
"humanized YP9.1 version b immunotoxin (hYP9.1b scFv fused to PE38) (scFv, V domains shown) VH: EVQLVESGGGLVQPGGSLRLSCAASGFNFNTNAMNWVRQAPGKGLEWVGRVRNKTNNYATYYADSVKDRFTISRDDSKNSLYLQMNSLKTEDTAVYYCVAGNSFAYWGQGTLVTVS VL: DIVMTQSPDSLAVSLGERATINCKSSQSLLYSSNQKNYLAWYQQKPGQPPKLLIYWASTRESGVPDRFSGSGSGTDFTLTISSLQAEDVAVYYCQQYYNYPLTFGQGTKLEIK",–,6.7,2.5,5.2
"YP9.1 immunotoxin (mouse YP9.1 scFv fused to PE38) (scFv, V domains shown) VH: EVQLVETGGGLVQPEGSLKLSCATSGFNFNTNAMNWVRQAPGKGLEWVARVRNKTNNYATYYADSVKDRFTISRDDSQRMVFLQMNNLKTEDTAIYYCVAGNSFAYWGQGTLVTVSP VL: not shown",–,1.8,–,–
